Measured values reported in US9212391B2, “Method for determining DNA fragmentation in microorganisms” (Universidad Autonoma de Madrid, priority 2006, dated 2015).

Tested on: Escherichia coli strain resistant to ciprofloxacin
Conditions: up to 10.00 μg/ml, 40 minutes

## O=C(O)c1cn(C2CC2)c2cc(N3CCNCC3)c(F)cc2c1=O [Ciprofloxacin, ciprofloxacin]
  effect detected by the vital stain (in words): did not detect any effect
